# Reference: PubChem BioAssay AID504761 (Drosophila RNAi Screening Center, 2011)
# Test: 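Fly genes whose silencing reduces dengue virus type 2 infection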 (primary screen)
# System: D.Mel-2 cells from Drosophila
# Reagent: long dsRNA against Drosophila genes
# Challenge: infection with dengue virus type 2; dose and infection time not stated
# Measurement: 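Per well on two replicate plates, imaging gave the percent of cells positive for viral envelope protein, ranked by infection, and a nuclear count of cells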
# Scale: infection score: higher = more virus-infected cells; cell count: higher = more cells in the well
# Hit rule: 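Very low infection ranking in both replicate wells (chance probability at most 0.065), then a retest showing infection dropped 1.5-fold or more at p below 0.05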
# Meaning of the calls: active = confirmed: knock-down lowers infection; inactive = not picked or not confirmed
# In all, the deposit lists about 22,000 reagents; this is an unselected part of those that have a named target and a result. Of all reagents, 116 (0.52%) got an active call. 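Calls depend on retest data that are not deposited; infection was ranked per plate without normalising between plates; the unit of the infection score is not given.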 Raw values are not corrected between plates. Unmarked entries are inactive. Reagents against one gene are numbered here. Names joined by + are all predicted targets of the reagent. Reagent sequences are not shown. The record does not give: the amount of reagent, the time to read-out.
target,dsRNA no.,"infection score, replicate 1","infection score, replicate 2","cell count, replicate 1","cell count, replicate 2"
Tdg,1,1.24,0.02,6374,6560
Tdg,2,2.9,5.84,5803,5192
Klp59D,1,13.5,14.8,5578,6083
Klp59D,2,13.2,9.75,6014,6197
G9a,1,2,1.02,6450,6584
CG11069,1,3.78,3.96,4688,6945
CG32814,1,2.55,3.31,6719,6882
CG32814,2,14.1,9.22,3309,6169
CG31544 (retired record),1,3.19,4.44,5991,5817
Ndae1,1,1.79,0.05,6267,6321
Ndae1,2,4.17,13.1,6156,5437
tank,1,43.1,24.5,5683,4926
Ipk2,1,18.9,6.16,5875,6364
Ipk2,2,3.03,2.87,6875,6908
Adgf-E,1,22.1,4.19,4852,7161
Adgf-E,2,25.5,24.1,5221,4191
poe,1,2.64,27.4,6179,5587
poe,2,29.4,14.9,3698,2235
Pms2,1,12.3,11.7,5446,6526
hpRNA:CR32205,1,4.59,3.59,6401,6466
CG12523,1,16.6,12.3,6079,6118
CG12523,2,2.91,8.02,6355,5807
Ir56d,1,4.27,2.84,6090,6482
Ir56d,2,6.35,17.7,2851,3768
CG9593,1,2.52,4.23,6713,6591
ZnT41F,1,13.3,22.4,6395,6122
nSyb,1,6.25,,3649,422
nSyb,2,11.2,8.45,6575,6665
CG30203,1,13.9,28,6144,5719
inc,1,3.35,10.6,6886,5423
inc,2,1.25,2.65,6379,6872
inc,3,26.3,17.5,4952,4880
CG42353 + CG42354,1,2.31,7.19,6665,6541
CG42353 + CG42354,2,11.5,16.9,1557,6149
Iru,1,9.5,13.1,5529,5823
CG42502 + CG10570,1,27.1,12.5,5769,6048
Cpr62Bc,1,3.26,1.14,6359,6490
Cpr62Bc,2,3.35,0.87,6184,5655
CG33143,1,3.85,4.7,6631,6491
CG33143,2,9.94,15.8,6398,6359
CG33143,3,2.07,13.5,6820,6560
Gr22e,1,0.14,0.23,6647,7064
CG8245,1,0.94,3.5,6288,6792
Ir52a,1,5.99,5,6862,6774
Cpr49Af,1,30.4,11.5,4365,6382
Cpr49Af,2,2.5,6.71,6043,5630
Cox17,1,0.93,4.07,6557,6247
Os-C,1,7.38,1.45,6397,6625
Os-C,2,14.1,3.27,4942,6971
Tim9a,1,7.74,6.34,5765,3074
GluRIID,1,2.08,5.83,7032,6693
GluRIID,2,2.82,2.26,5468,5974
CG11836,1,3.93,6.04,6256,6462
Npc2h,1,9.29,8.98,5942,5679
X11Lbeta,1,9.25,15,2399,1494
X11Lbeta,2,4.35,4.46,6317,5579
X11Lbeta,3,12,3.63,5373,1734
topi,1,3.69,2.54,6072,6614
